Measured values from several laboratories, pooled; numbers as filed in NIAID ChemDB.

Common to all: tests in culture; species: Aspergillus fumigatus

Blank or dashed fields: not listed here.

structure,conditions,read-out,method,strain,value
COC(=O)/C=C/c1ccccc1,,MIC,broth dilution / resazurin,ATCC 16404,500 µg/mL
CCCCCCCCCCC[C@@H]1CC(=O)NCC(=O)N[C@@H](CCCCN)C(=O)N[C@@H](CC2CCCCC2)C(=O)N1,,MIC,,TIMM0063,64 µg/mL
C[C@@H](c1ncncc1F)[C@](O)(Cn1cncn1)c1ccc(F)cc1F,,MIC90,,35 isolates,0.5 µg/mL
FC(F)(F)c1nc(OCc2nc(-c3cccs3)n[nH]2)c2ccccc2n1,,MIC100,,MTCC 343,12.5 µg/mL
CCCCN(Cc1cn(Cc2ccc(Cl)cc2Cl)nn1)CC(O)(Cn1cncn1)c1ccc(F)cc1F,,MIC80,,,>64 µg/mL
CC[C@@H]1OC(=O)[C@H](C)C(=O)C(O)(CO)C/C(SC)=C/[C@@H](C)Cc2cccc1c2,,MIC,,TIMM1776,>64 µg/mL
O=C1CSC(c2ccc3c(c2)OCO3)N1c1ncc(-c2cc3ccccc3oc2=O)o1,,MIC,broth dilution,HIC 6094,20 µg/mL
Cc1ccc(-c2n[nH]c(COc3ncnc4ccccc34)n2)cc1,,MIC100,,MTCC 343,25 µg/mL
O=C(CSc1nnc(-c2ccc3ncccc3c2)o1)Nc1ccc(Br)cc1,,MIC,agar,,25 µg/mL
COc1ccc(NS(=O)(=O)c2ccc(N)cc2)nn1,,MIC,,IFM 47450,≥256 µg/mL
Oc1ccc(-c2n[nH]c(COc3ncnc4ccccc34)n2)cc1,,MIC100,,MTCC 343,25 µg/mL
CCCCCCCC(=O)OC1CCN(CC(O)(Cn2cncn2)c2ccc(F)cc2F)CC1,,MIC80,broth dilution,0504656,2.221 µM
CCCCCCCCCCCC[n+]1cccc2ccccc21,48 h,MIC,broth dilution,231,0.125 µg/mL
C[C@H]1[C@H](O)[C@@H](C)/C=C/C=C/C=C/C=C/C=C/C=C/C=C/[C@H](O[C@@H]2O[C@H](C)[C@@H](O)[C@H](N)[C@@H]2O)C[C@@H]2O[C@](O)(C[C@@H](O)C[C@@H](O)CC[C@H](O)[C@@H](O)C[C@@H](O)CC(=O)O[C@H]1C)C[C@H](O)[C@H]2C(=O)O,,MIC,broth dilution,7544,4 µg/mL
C[C@H]1[C@H](O)[C@@H](C)/C=C/C=C/C=C/C=C/C=C/C=C/C=C/[C@H](O[C@@H]2O[C@H](C)[C@@H](O)[C@H](N)[C@@H]2O)C[C@@H]2O[C@](O)(C[C@@H](O)C[C@@H](O)CC[C@H](O)[C@@H](O)C[C@@H](O)CC(=O)O[C@H]1C)C[C@H](O)[C@H]2C(=O)O,,MIC,broth dilution,20435,0.25 µg/mL
O=C(CSc1nnc(-c2ccc3ncccc3c2)o1)Nc1nc2ccc(Cl)cc2s1,,MIC,agar,,100 µg/mL
Cc1ccc(C2SCC(=O)N2c2ncc(-c3cc4ccccc4oc3=O)o2)cc1,,MIC,broth dilution,HIC 6094,30 µg/mL
Nc1[nH]c(=O)ncc1F,,MIC50,,12 strains,>128 µg/mL
O=C(/C=C/c1ccccc1)OC1CCN(CC(O)(Cn2cncn2)c2ccc(F)cc2F)CC1,,MIC80,broth dilution,0504656,0.534 µM
CCCCN(Cc1cn(Cc2cccc(C#N)c2)nn1)CC(O)(Cn1cncn1)c1ccc(F)cc1F,,MIC80,,,>64 µg/mL
CCCCCCCCCCC[C@@H]1CC(=O)NCC(=O)N[C@@H](CCCCN)C(=O)N[C@@H](C(C(C)C)C(C)(C)C)C(=O)N1,,MIC,,TIMM0063,32 µg/mL
N#Cc1ccc(/C=C/C(=O)OC2CCN(CC(O)(Cn3cncn3)c3ccc(F)cc3F)CC2)cc1,,MIC80,broth dilution,0504656,2.028 µM
c1csc(-c2n[nH]c(COc3ncnc4ccccc34)n2)c1,,MIC100,,MTCC 343,12.5 µg/mL
Cc1ccc(C(C)C)c(O)c1,,MIC,,ATCC 46645,0.16 µg/mL
O=C1C[C@@H](c2ccc(F)cc2)Cc2cc(O)cc(O)c21,,MIC,,Clinical isolate H237,137 µg/mL
O/N=C/c1cc[n+](Cc2ccc(C[n+]3ccc(/C=N/O)cc3)s2)cc1.[Cl-].[Cl-],,EC50,broth dilution,,>20 µg/mL
CCCCN(Cc1cn(Cc2ccccc2F)nn1)CC(O)(Cn1cncn1)c1ccc(F)cc1F,,MIC80,,,>64 µg/mL
COC(/C=C/c1ccco1)=C1/C(=O)C=C(C)C1=O,,MFC,,ATCC 90906,>20 µg/mL
N#Cc1ccc(Nc2nc(Oc3ncnc4ccccc34)nc(N3CCCCC3)n2)cc1C(F)(F)F,,MIC,,MTCC 343,>100 µg/mL
C[C@H]1[C@H](O)[C@@H](C)/C=C/C=C/C=C/C=C/C=C/C=C/C=C/[C@H](O[C@@H]2O[C@H](C)[C@@H](O)[C@H](N)[C@@H]2O)C[C@@H]2O[C@](O)(C[C@@H](O)C[C@@H](O)CC[C@H](O)[C@@H](O)C[C@@H](O)CC(=O)O[C@H]1C)C[C@H](O)[C@H]2C(=O)O,,MIC90,,62 isolates,0.5 µg/mL
CCC(C)n1ncn(-c2ccc(N3CCN(c4ccc(OC[C@H]5CO[C@](Cn6cncn6)(c6ccc(Cl)cc6Cl)O5)cc4)CC3)cc2)c1=O,,MIC80,broth dilution,0504656,1.417 µM
O=C(CSc1nnc(-c2ccc3ncccc3c2)o1)Nc1nc2ccc(Br)cc2s1,,MIC,agar,,50 µg/mL
O=C1C[C@@H](c2cccc(F)c2)Cc2cc(O)cc(O)c21,,MIC,,Clinical isolate H237,274 µg/mL
N#Cc1ccc(Nc2nc(Oc3ncnc4ccccc34)nc(N3CCN(c4ncccn4)CC3)n2)cc1C(F)(F)F,,MIC,,MTCC 343,>100 µg/mL
COC(=O)[C@H]1[C@@H]2C[C@@H](O[C@@H]3O[C@H](C)[C@@H](O)[C@H](N)[C@@H]3O)/C=C/C=C/C=C/C=C/C=C/C=C/C=C/[C@H](C)[C@@H](O)[C@H](C)[C@H](C)OC(=O)C[C@H](O)C[C@H](O)[C@@H](O)CC[C@H](O)C[C@H](O)C[C@](O)(C[C@@H]1O)O2,,MLC,,H11-20,0.58 µg/mL
CCC(C)CC(C)CCCCCCCCC(=O)N[C@H]1C[C@@H](O)[C@H](NCCN)NC(=O)[C@@H]2[C@@H](O)CCN2C(=O)[C@H]([C@H](O)CCN)NC(=O)[C@H]([C@H](O)[C@@H](O)c2ccc(O)cc2)NC(=O)[C@@H]2C[C@@H](O)CN2C(=O)[C@H]([C@@H](C)O)NC1=O,,MIC,,MF5668,0.06 µg/mL
COc1cc(C2SCC(=O)N2c2ncc(-c3cc4ccccc4oc3=O)o2)ccc1O,,MIC,broth dilution,HIC 6094,30 µg/mL
CCC(C)n1ncn(-c2ccc(N3CCN(c4ccc(OC[C@H]5CO[C@](Cn6cncn6)(c6ccc(Cl)cc6Cl)O5)cc4)CC3)cc2)c1=O,,MIC90,,17 isolates,0.25 µg/mL
C=C1/C=C(\C)[C@H](CC)OC(=O)[C@H](C)C(=O)C(O)(CO)C/C(OC)=C/[C@@H](C)C1,,MIC,,MF5668,>200 µg/mL
CCN1CCN(c2nc(Nc3ccc(C#N)c(C(F)(F)F)c3)nc(Oc3ncnc4ccccc34)n2)CC1,,MIC,,MTCC 343,>100 µg/mL
O=C1CSC(c2ccc(O)cc2)N1c1ncc(-c2cc3ccccc3oc2=O)o1,,MIC,broth dilution,HIC 6094,20 µg/mL
CC(/C=C/C=C(\C)C(O)C(C)C(=O)O[C@H]1C[C@@H](C)C=C2C=C[C@]3(C)O[C@@H](O)CC(=O)[C@]3(C)[C@H]21)=C\C=C\C(=O)O,,MIC,,AC3446,50 µg/mL
CCCCN(Cc1cn(Cc2ccccc2Br)nn1)CC(O)(Cn1cncn1)c1ccc(F)cc1F,,MIC80,,,>64 µg/mL
O/N=C/c1cccc[n+]1Cc1ccc(Br)s1.[Cl-],,EC50,broth dilution,,>20 µg/mL
O=C(N/N=C/c1cc([N+](=O)[O-])ccc1O)c1ccc(I)cc1,,MIC,,Strain 1,0.4 µg/mL
CCCC(C)(C)C(=O)OC1CCN(CC(O)(Cn2cncn2)c2ccc(F)cc2F)CC1,,MIC80,broth dilution,0504656,9.17 µM
CCCC(CC(=O)O)C1=C(O)C(CC=C(C)C)(CC=C(C)C)C(=O)C2=C1O[C@H](C)[C@@H](C)C2=O,,MIC80,,CBS 113.26,16 µg/mL
CC(=O)N1CCN(c2ccc(OC[C@H]3CO[C@](Cn4ccnc4)(c4ccc(Cl)cc4Cl)O3)cc2)CC1,,MIC,,2 strains,5 µg/mL
CCC(C)n1ncn(-c2ccc(N3CCN(c4ccc(OC[C@H]5CO[C@](Cn6cncn6)(c6ccc(Cl)cc6Cl)O5)cc4)CC3)cc2)c1=O,48 h,MIC,broth dilution,NBRC 33022,2 µg/mL
CSc1cc(-c2ccc(Br)cc2)c(C(=O)O)s1,,MIC,,AF-27,>100 µg/mL
CS(C)=O,,MIC,,MTCC 343,>100 µg/mL
O=C(/C=C/c1ccc(Cl)cc1Cl)OC1CCN(CC(O)(Cn2cncn2)c2ccc(F)cc2F)CC1,,MIC80,broth dilution,0504656,1.865 µM
CCCCN(Cc1cn(Cc2ccc(Cl)cc2)nn1)CC(O)(Cn1cncn1)c1ccc(F)cc1F,,MIC80,,,>64 µg/mL
O/N=C/c1cccc[n+]1Cc1csc2ccccc12.[Cl-],,EC50,broth dilution,,>20 µg/mL
C[C@H]1[C@H](O)[C@@H](C)/C=C/C=C/C=C/C=C/C=C/C=C/C=C/[C@H](O[C@@H]2O[C@H](C)[C@@H](O)[C@H](N)[C@@H]2O)C[C@@H]2O[C@](O)(C[C@@H](O)C[C@@H](O)CC[C@H](O)[C@@H](O)C[C@@H](O)CC(=O)O[C@H]1C)C[C@H](O)[C@H]2C(=O)O,,MIC90,,12 strains,2 µg/mL
CCCCC(=O)OC1CC(OC(C)C(C)C(O)C(C)C(O)C(C)C2OC(=O)/C=C/CC(O)CC(O)CC(O)CCC(C)C(O)C[C@@]3(O)O[C@H](CC(O)CC(OC(=O)CC(=O)O)CCCC(O)C4OC4C2C)C[C@H](O)[C@H]3O)OC(C)C1O,,MIC,,IFM 41994,>100 µg/mL
CCCCCCCCCCCCCC(O)CC(O)C(N)CC(=O)CC(C)C(N)C(=O)NC(C=O)CO,,MIC,,,25 µg/mL
C=C1CC(C/C(C)=C/COc2ccc3ccc(=O)oc3c2)OC1=O,,MIC,,MTCC 6594,625 µg/mL
O=C(/C=C/c1ccc(Br)cc1)OC1CCN(CC(O)(Cn2cncn2)c2ccc(F)cc2F)CC1,,MIC80,broth dilution,0504656,1.831 µM
CCOc1ccc(NC(=O)CSc2nnc(-c3ccc4ncccc4c3)o2)cc1,,MIC,agar,,100 µg/mL
CCOC(=O)c1sc(SC)cc1-c1ccccc1,,MIC,,AF-27,>100 µg/mL
CNC1(NC)C=CC(C2SCC(=O)N2c2ncc(-c3cc4ccccc4oc3=O)o2)=CC1,,MIC,broth dilution,HIC 6094,20 µg/mL
N#Cc1ccc(Nc2nc(Oc3ncnc4ccccc34)nc(N3CCN(Cc4ccccc4)CC3)n2)cc1C(F)(F)F,,MIC,,,>100 µg/mL
CCCCCCCCCCC[C@@H]1CC(=O)NCC(=O)N[C@@H](CCCCN)C(=O)N[C@@H](CC(C)C)C(=O)N1,,MIC,,TIMM0063,>128 µg/mL
CCOC(=O)c1sc2cc(-c3cccnc3)oc(=O)c2c1N,,MIC,,AF-27,>100 µg/mL
C[C@H]1[C@H](O)[C@@H](C)/C=C/C=C/C=C/C=C/C=C/C=C/C=C/[C@H](O[C@@H]2O[C@H](C)[C@@H](O)[C@H](N)[C@@H]2O)C[C@@H]2O[C@](O)(C[C@@H](O)C[C@@H](O)CC[C@H](O)[C@@H](O)C[C@@H](O)CC(=O)O[C@H]1C)C[C@H](O)[C@H]2C(=O)O,,MIC90,,314 isolates,0.5 µg/mL
CC(C)c1cccc(-c2nc3[n+]([nH]2)CCN([C@H](C)[C@](O)(C[n+]2cnc[nH]2)c2ccc(F)cc2F)C3)c1,,MIC,,7544,32 µg/mL
CC(C)CCCCCCCCC1CC(=O)NCC(=O)N[C@@H](CCCN)C(=O)N[C@@H](C(C)C)C(=O)N1,,MIC,,IFM4942,>80 µg/mL
CCCC(CC(=O)O)c1c2c(c(O)c3c1O[C@@H](C)[C@@H](C)C3=O)C=CC(C)(C)O2,,MIC80,,CBS 113.26,>250 µg/mL

Repeating the final 8 entries:

structure	conditions	read-out	method	strain	value
CNC1(NC)C=CC(C2SCC(=O)N2c2ncc(-c3cc4ccccc4oc3=O)o2)=CC1		MIC	broth dilution	HIC 6094	20 µg/mL
N#Cc1ccc(Nc2nc(Oc3ncnc4ccccc34)nc(N3CCN(Cc4ccccc4)CC3)n2)cc1C(F)(F)F		MIC			>100 µg/mL
CCCCCCCCCCC[C@@H]1CC(=O)NCC(=O)N[C@@H](CCCCN)C(=O)N[C@@H](CC(C)C)C(=O)N1		MIC		TIMM0063	>128 µg/mL
CCOC(=O)c1sc2cc(-c3cccnc3)oc(=O)c2c1N		MIC		AF-27	>100 µg/mL
C[C@H]1[C@H](O)[C@@H](C)/C=C/C=C/C=C/C=C/C=C/C=C/C=C/[C@H](O[C@@H]2O[C@H](C)[C@@H](O)[C@H](N)[C@@H]2O)C[C@@H]2O[C@](O)(C[C@@H](O)C[C@@H](O)CC[C@H](O)[C@@H](O)C[C@@H](O)CC(=O)O[C@H]1C)C[C@H](O)[C@H]2C(=O)O		MIC90		314 isolates	0.5 µg/mL
CC(C)c1cccc(-c2nc3[n+]([nH]2)CCN([C@H](C)[C@](O)(C[n+]2cnc[nH]2)c2ccc(F)cc2F)C3)c1		MIC		7544	32 µg/mL
CC(C)CCCCCCCCC1CC(=O)NCC(=O)N[C@@H](CCCN)C(=O)N[C@@H](C(C)C)C(=O)N1		MIC		IFM4942	>80 µg/mL
CCCC(CC(=O)O)c1c2c(c(O)c3c1O[C@@H](C)[C@@H](C)C3=O)C=CC(C)(C)O2		MIC80		CBS 113.26	>250 µg/mL

Conditions beyond the fields shown may differ between rows. ECn is the concentration giving n% inhibition of infection, replication or growth. A number after MIC or MFC names an inhibition level or a share of isolates.